# Measured values as given in PMC12537208.
# What was measured:
# [1] = system: IHF; assay: EMSA; details: shift at 0.05 and 0.1 uM IHF (range 0-0.1 uM), 100 ng DNA, 8 mM MgCl2, 40 mM HEPES ([…], room temperature 20 min, recombinant protein, probe letters rebuilt from the primers and the genome
# [2] = system: Fis-His6 (Klebsiella oxytoca); assay: EMSA; details: shift at 0.5 and 1.0 uM Fis (range 0-1.0 uM), 100 ng DNA, 8 mM MgCl2, 40 mM HEPES ([…], room temperature 20 min, recombinant protein, residues 1-98, protein details: C-terminal His6, probe letters rebuilt from the primers and the genome
sequence,measurement,setting,value
TCTCTCACTCGAAATTTAACAGGTTTTTCGTTTGTTTTTTAACAAAAAAGCGATGAGAAAGTGCTATTCCTTGTCTGTTTACTGGACATGAAAGACGATACGGTTTGCACAAATATTGCACGCCAATGGGTGCCTTATGTCAATCAAAAAAGTTTATATTTGATTTATGTTTTTTCATGTTATTGATTTTTATGGTTATTATTTTTGTTGGTTTTTTATTTTTTGCTATATGATTTTTTTTTGGAAATCAAATTGACTGGGGATGAGGTTCGAAGATAGACTATTGAAAGCAACGCTTAGTTATGCTTGTGTTGCTTATATGTTGCTTGTTTTGCGGTGTTTGCTTAGAGGCATCTCACGGTAAGCTGGCGGCATTTCTTTAGATCTTTAATTTCTTCTTCAAGAGAAGATTTTATGCGTGTGAACGTTCCTAATTCTCCAGGAGAGA (double strand) [aroX-npsA intergenic region probe],binding result,[1],binds
same,binding result,[2],binds

# Construct, isoform or probe ends are uncertain for at least one entry.
